Results of unrelated studies side by side (data: NIAID ChemDB).

Common to all: whole-cell or culture tests; species: Hepatitis C virus; cell line: Huh7; read-out: EC50

Blank or dashed fields: not listed here.

| smiles | strain or isolate | mutations | read by | result |
|---|---|---|---|---|
| CNC(=O)c1c(-c2ccc(F)cc2)oc2cc(N(C)S(C)(=O)=O)c(OCc3ccc(C(=O)OC)cc3)cc12 | - | - | replicon | <1 µM |
| O=C(Cc1ccccc1)N/N=C/c1ccccc1OS(=O)(=O)c1cccc2ccccc12 | - | - | replicon | >50 µM |
| CNC(=O)c1c(-c2ccc(F)cc2)oc2cc(-c3ccc(S(C)(=O)=O)cc3)c(OC(C)C)cc12 | - | - | replicon | <10 µM |
| CN(C)c1ccc(CC(=O)N2CCC[C@@H]2C(=O)Nc2ccc(C3SC(=Nc4ccc(N5CCOCC5)cc4)N(Cc4ccccn4)C3=O)cc2)cc1 | - | - | replicon | 0.1–1 µM |
| CNC(=O)c1c(-c2ccccc2)oc2cc(OC)ccc12 | - | - | replicon | <10 µM |
| CN(C)S(=O)(=O)NC(=O)c1ccc2c(C3CCCCC3)c3n(c2c1)CC(C(=O)N1CCOCC1)Cc1cccnc1-3 | - | - | replicon | 0.01–1 µM |
| CNC(=O)c1c(-c2ccc(F)cc2)oc2cc(NS(C)(=O)=O)ccc12 | - | - | replicon | <10 µM |
| O=C(CC1CCCC1)N/N=C/c1ccccc1OS(=O)(=O)c1ccc(C(F)(F)F)cc1 | - | - | replicon | <5 µM |
| O=C(NC1(C(=O)Nc2nccs2)CCCC1)c1ccc2c(C3CCCCC3)c3n(c2c1)CC=Cc1ccccc1-3 | - | - | replicon | 0.01–1 µM |
| C[C@@H](NC(=O)c1ccccc1)C(=O)Nc1ccc(C2SC(=Nc3cccc(F)c3)N(Cc3ccco3)C2=O)cc1 | - | - | replicon | 1–5 µM |
| O=C(Cc1ccccc1)N/N=C/c1ccccc1OS(=O)(=O)c1ccccc1Br | - | - | replicon | >50 µM |
| COC(=O)/C=C/c1ccc(NC(=O)C2(NC(=O)c3ccc4c(C5CCCCC5)c5n(c4c3)CCCc3occc3-5)CCCC2)cc1 | - | - | replicon | 0.01–1 µM |
| COc1c(-c2ccc3cc(NS(C)(=O)=O)ccc3c2)cc(-n2ccc(=O)[nH]c2=O)cc1C(C)(C)C | genotype 1b Con1 | N411S | luciferase | 0.05 µM |
| O=C(NS(=O)(=O)C1CC1)c1ccc2c(C3CCCCC3)c3n(c2c1)CCCc1ncccc1-3 | - | - | replicon | 0.01–1 µM |
| O=C(Nc1ccc(C2SC(=Nc3cc(F)cc(F)c3)N(Cc3ccco3)C2=O)cc1)[C@H]1CCCN1C(=O)OCc1ccccc1 | - | - | replicon | 0.1–1 µM |
| COc1cccc(CC(=O)N/[N+](C)=C/c2ccc(F)cc2OS(=O)(=O)c2ccc(C(F)(F)F)cc2)c1 | - | - | replicon | >50 µM |
| CNC(=O)c1c(-c2ccc(F)cc2)oc2cc(C3CCCN3)c(OC(C)C)cc12 | - | - | replicon | >30 µM |
| O=C(O)c1ccc2c(C3CCCCC3)c3n(c2c1)CC(C(=O)N1CCCOCC1)=Cc1ccccc1-3 | - | - | replicon | 0.01–1 µM |
| CNC(=O)c1c(-c2ccc(F)cc2)oc2ccc(OCc3cscn3)cc12 | - | - | replicon | >30 µM |
| O=C(Cc1ccccc1Br)N/N=C/c1ccccc1OS(=O)(=O)c1ccc(C(F)(F)F)cc1 | - | - | replicon | <5 µM |
| O=C(Nc1ccc(C2SC(=Nc3ccc(N4CCOCC4)cc3)N(Cc3ccccn3)C2=O)cc1)[C@H]1CCCN1C(=O)C1(c2ccc(F)cc2)CCCC1 | - | - | replicon | 0.1–1 µM |
| CNC(=O)c1c(-c2ccncc2)oc2ccc(F)cc12 | - | - | replicon | >30 µM |
| CN(C)S(=O)(=O)NC(=O)c1ccc2c(C3CCCCC3)c3n(c2c1)CC(C(=O)O)=Cc1ccccc1-3 | - | - | replicon | >10 µM |
| CNC(=O)c1c(-c2ccc(F)cc2)oc2cc(CN(C)S(C)(=O)=O)c(OC(C)C)cc12 | - | - | replicon | <10 µM |
| O=C(O)c1ccc2c(C3CCCCC3)c3n(c2c1)CC(C(=O)N1CCC(O)CC1)Cc1ccccc1-3 | - | - | replicon | 0.01–1 µM |

For reference, 3 entries again:

smiles | strain or isolate | mutations | read by | result
CNC(=O)c1c(-c2ccccc2)oc2cc(OC)ccc12 | - | - | replicon | <10 µM
O=C(O)c1ccc2c(C3CCCCC3)c3n(c2c1)CC(C(=O)N1CCCOCC1)=Cc1ccccc1-3 | - | - | replicon | 0.01–1 µM
O=C(O)c1ccc2c(C3CCCCC3)c3n(c2c1)CC(C(=O)N1CCC(O)CC1)Cc1ccccc1-3 | - | - | replicon | 0.01–1 µM

Lines come from different laboratories, so protocols vary. a–b is a range or a potency band. ECn is the concentration giving n% inhibition of infection, replication or growth.